Anti-infective test results gathered from many reports (values: NIAID ChemDB through PubChem).

Common to all: toxicity to cultured cells; cells: VERO; read-out: CC50

CCn is the concentration with n% toxicity to the cells.

SMILES,result
C=C1CC[C@@H]2[C@](C)(CCC3[C@@]4(C)[C@H](O)CCC(C)(C)[C@@H]4CC[C@]32C)[C@H]1CN=C(N)N,135 µM
O=c1[nH]c(=O)n([C@H]2C[C@H](O)[C@@H](CO)S2)cc1F,93 µM
Cc1cn([C@@H]2O[C@H](CO)C(F)(F)C2(F)F)c(=O)[nH]c1=O,>100 µM
Cc1ccc2c(c1)c(N=NC(N)=O)c(O)n2CN1CCN(c2cc3c(cc2F)c(=O)c(C(=O)O)cn3C2CC2)CC1,>0.111 µM
OCCNCCN1CCN(CCCN2c3ccccc3Sc3ccc(C(F)(F)F)cc32)CC1,<2.06 µg/mL
CCOC(=O)C1=C(C)NC(=S)NC1c1cn(-c2ccccc2)nc1-c1ccc(C)cc1,8.9 µg/mL
Cc1nc(/N=C(\N)Nc2ccc(Cl)c(Cl)c2)ncc1N1CCC(N2CCCC2)CC1,1.97 µg/mL
Cc1ccc2nc(C)c(C(=O)NCc3ccc(N4CCC(c5ccc(OC(F)(F)F)cc5)CC4)cc3)n2c1,>32 µM
c1ccc(/C(Cn2ccnc2)=N/OCc2ccc(-c3ccccc3)cc2)cc1,3 µg/mL
NC(=O)C(=O)CC(=O)c1ccccc1NC1=CC(=O)C(=O)c2ccccc21,>10 µg/mL
CC1(C)[C@@H](CO)CC[C@@]1(C)Cn1cc(I)c(=O)[nH]c1=O,>400 µg/mL
Cc1c2c(cc3c1[nH]c1ccccc13)C(c1ccc(F)cc1)=NCC2,0.88 µg/mL
COC(C)c1cn([C@H]2C[C@H](O)[C@@H](CO)S2)c(=O)[nH]c1=O,>500 µM
CCOc1ccc2c(c1)n([O-])c1cc(Br)ccc1[n+]2=O,20.56 µg/mL
Nc1ncnc2c1ncn2[C@@H]1O[C@H](CO)[C@@H](O)[C@@H]1O,32 µg/mL
COC(=O)C1=C(C)NC(=S)NC1c1cn(-c2ccccc2)nc1-c1ccc([N+](=O)[O-])cc1,9.6 µg/mL
NC(=O)N=Nc1c(O)n(CN2CCN(c3cc4c(cc3F)c(=O)c(C(=O)O)cn4C3CC3)CC2)c2ccc(Br)cc12,>0.1 µM
Fc1ccc(/C(Cn2ccnc2)=N\OCc2ccc(-c3ccccc3)cc2)cc1,6 µg/mL
COc1ccc2nc(N/N=C(\C)c3ccccn3)cc(C)c2c1,0.39 µg/mL
CCN(CC)c1noc(-c2ccc(O)cc2O)c1Cc1c(N(CC)CC)noc1-c1ccc(OC)cc1O,3.5 µM
CC1(C)[C@@H](CO)CC[C@@]1(C)Cn1ccc(=O)[nH]c1=O,>400 µg/mL
C/C=[N+](\NC(=O)CCCC(=O)N/[N+](=C\C)C1(O)Cc2c(O)c3c(c(O)c2C(OC2CC(N)C(O)C(C)O2)C1)C(=O)c1c(OC)cccc1C3=O)C1(O)Cc2c(O)c3c(c(O)c2C(OC2CC(N)C(O)C(C)O2)C1)C(=O)c1c(OC)cccc1C3=O,0.79 µg/mL
CC(C)OC(=O)[C@H](C)NP(=O)(OC[C@H]1O[C@@H](n2cnc3c(N)ncnc32)C(F)(F)C1(F)F)Oc1ccccc1,>100 µM
CC[C@H]1OC(=O)[C@H](C)C(=O)[C@H](C)[C@@H](O[C@@H]2O[C@H](C)C[C@H](N(C)C)[C@H]2O)[C@](C)(OC)C[C@@H](C)C(=O)[C@H](C)[C@H]2N(CCCCCc3ccccc3)C(=O)O[C@]12C,8.84 µM
OC(c1cc(-c2ccc(Cl)cc2)nc2ccccc12)C1CCCCN1,12 µg/mL
N#Cc1cc(NC(=O)c2ccccc2)c(=O)n2c1[nH]c1ccccc12,4.8 µg/mL
O=c1[nH]c(=O)n([C@H]2C[C@H](O)[C@@H](CO)S2)cc1Br,>500 µM
CC1(C)[C@@H](CO)CC[C@@]1(C)Cn1cc(Br)c(=O)[nH]c1=O,>400 µg/mL
CC1=NN(C(=O)c2ccncc2)C(=O)C1N=Nc1ccc([N+](=O)[O-])cc1Cl,10.71 µg/mL
CCc1nc2sc(C)cn2c1C(=O)NCc1ccc(N2CCC(c3ccc(OC(F)(F)F)cc3)CC2)cc1,>32 µM
COC(=O)[C@H](C)NP(=O)(OC[C@H]1C/C1=C/n1cnc2c(N)nc(N)nc21)Oc1ccccc1,35 µM
CCc1nc2ccc(C)cn2c1C(=O)NCc1ccc2c(c1)CCO2,>32 µM
CC(=O)C(NC(=O)C(C)C(O)C(C)NC(=O)C(NC(=O)c1nc(C(CC(N)=O)NCC(N)C(N)=O)nc(N)c1C)C(OC1OC(CO)C(O)C(O)C1(C)OC1OC(CO)C(O)C(O)(C(N)=O)C1O)c1cnc[nH]1)C(=O)NCCC1=NC(c2nc(C(N)=O)cs2)CS1,0.8 µg/mL
Cc1ccn2c(C(=O)NCc3ccc(N4CCC(c5ccc(OC(F)(F)F)cc5)CC4)cc3)c(C)nc2c1,>32 µM
Nc1nc2c(ncn2CCC(O)CO)c(=O)[nH]1,500 µM
Clc1ccc(/C(Cn2ccnc2)=N/OCc2cccc3ccccc23)c(Cl)c1,8 µg/mL
Nc1ccn([C@@H]2C=C(F)[C@H](CO)O2)c(=O)n1,>100 µM
CCN(CC)c1cc(-c2ccc(OC)cc2O)on1,>381 µM
CCOC(=O)C1=C(C)NC(N)=NC1c1cn(-c2ccccc2)nc1-c1ccc(Cl)cc1,>10 µg/mL
COC(=O)[C@H](C)NP(=O)(OCC1C/C1=C/n1cnc2c(=O)[nH]c(N)nc21)Oc1ccccc1,>100 µM
O=C(Nn1c(=O)c(=O)oc2ccccc21)C(F)(F)F,16.9 µg/mL
Nc1nc2c(ncn2COC(CO)CO)c(=O)[nH]1,900 µM
CCN(CC)c1cc(-c2ccc(OC)cc2OC)on1,>362 µM
Fc1ccc(/C(Cn2ccnc2)=N\OCc2cccc3ccccc23)cc1,6 µg/mL
COC(=O)[C@H](C)NP(=O)(OC[C@H]1C/C1=C/n1cnc2c(OC)nc(N)nc21)Oc1ccccc1,2.2 µM
O=c1[nH]c(=O)n([C@H]2C[C@H](O)[C@@H](CO)S2)cc1C(F)(F)F,>500 µM
CC[C@H]1OC(=O)[C@H](C)C(=O)[C@H](C)[C@@H](O[C@@H]2O[C@H](C)C[C@H](N(C)C)[C@H]2O)[C@@](C)(C/C=C/c2cnc3ccccc3c2)C[C@@H](C)C(=O)[C@H](C)[C@H]2NC(=O)O[C@@]21C,>102.4 µM
CC(=O)N[C@@H]1[C@@H](O)[C@H](O)[C@@H](CO)O[C@H]1N[C@H]1[C@H](O)[C@@H](C(=O)O)OC(OC2CC[C@@]3(C)C(CC[C@]4(C)C3C(=O)C=C3C5C[C@@](C)(C(=O)O)CC[C@]5(C)CC[C@]34C)C2(C)C)[C@@H]1OC1O[C@H](O)[C@@H](O)[C@H](O)[C@H]1C(=O)O,500 µg/mL
O=c1ccn([C@@H]2O[C@H](CO)C(F)(F)C2(F)F)c(=O)[nH]1,>100 µM
O=c1ccn([C@H]2C=C(F)[C@@H](CO)O2)c(=O)[nH]1,>100 µM
CC1=CC(=Nc2ccc(N(C)C)cc2)C=C(C)C1=O,1.82 µg/mL
Cc1cn([C@@H]2C=C(F)[C@H](CO)O2)c(=O)[nH]c1=O,>100 µM
CC(C)OC(=O)[C@H](C)NP(=O)(OC[C@H]1O[C@@H](n2ccc(=O)[nH]c2=O)C(F)(F)C1(F)F)Oc1ccccc1,>100 µM
CC(C)c1ccc2c(c1)CCC1C2(C)CCCC1(C)C(O)c1ccccc1,30 µg/mL
CSCc1cn([C@H]2C[C@H](O)[C@@H](CO)S2)c(=O)[nH]c1=O,>500 µM
Cc1cn([C@H]2C=C(F)[C@@H](CO)O2)c(=O)[nH]c1=O,>100 µM
Cc1ccn2c(C(=O)NCc3ccc(N4CCS(=O)(=O)CC4)c(F)c3)c(C)nc2c1,>32 µM
COc1ccc(-c2cc(N3CCCC3)no2)c(O)c1,>384 µM
CC[C@H]1OC(=O)[C@H](C)C(=O)[C@H](C)[C@@H](O[C@@H]2O[C@H](C)C[C@H](N(C)C)[C@H]2O)[C@](C)(OC)C[C@@H](C)C(=O)[C@H](C)[C@H]2N(CCCCc3ccc(N)cc3)C(=O)O[C@]12C,26.04 µM
CCOc1ccc(-c2onc(N(CC)CC)c2Cc2c(N(CC)CC)noc2-c2ccc(O)cc2O)c(O)c1,17 µM
CCOC(=O)C1=C(C)NC(=O)NC1c1cn(-c2ccccc2)nc1-c1ccc(F)cc1,>10 µg/mL
C=Cc1c(C)c2cc3nc(c(C(=O)O)c4nc(cc5[nH]c(cc1[nH]2)c(C)c5CC)C(C)=C4C(=O)O)[C@@H](CCC(=O)O)[C@@H]3C,>100 µM
Clc1ccc(/C(Cn2ccnc2)=N\OCc2cccc3ccccc23)cc1,12 µg/mL
C=CCNc1nc2c(s1)c1c(O)c3c(O)c(C)c4c(c32)C(=O)[C@@](C)(O/C=C/[C@H](OC)[C@@H](C)[C@@H](OC(C)=O)[C@H](C)[C@H](O)[C@H](C)[C@@H](O)[C@@H](C)/C=C/C=C(/C)C(=O)N1)O4,>10 µg/mL
Cc1cn([C@@H]2O[C@H](CO)[C@@H](O)[C@@H]2F)c(=O)[nH]c1=O,40 µM
CN(C)C(=O)Sc1ccc(-c2c(-c3ccccc3)oc3ccc4ccccc4c23)cc1,>500 µg/mL
O=C1C(=O)N(CN2CCN(c3cc4c(cc3F)c(=O)c(C(=O)O)cn4C3CC3)CC2)c2ccccc21,>0.127 µM
O=C(NNC(=S)Nc1cccc(C(F)(F)F)c1)c1ccncc1,>62.5 µg/mL
NC(=S)N=Nc1c(O)n(CN2CCN(c3cc4c(cc3F)c(=O)c(C(=O)O)cn4C3CC3)CC2)c2ccc(Cl)cc12,>0.017 µM
CN(C)C(=S)SCN1C(=O)c2ccccc2C1=O,1.7 µg/mL
CC[C@H]1OC(=O)[C@H](C)C(=O)[C@H](C)[C@@H](O[C@@H]2O[C@H](C)C[C@H](N(C)C)[C@H]2O)[C@](C)(OC)C[C@@H](C)C(=O)[C@H](C)[C@H]2N(NCCCCCCc3ccnc4ccccc34)C(=O)O[C@]12C,7.32 µM
CCN(CC)C(=S)SSC(=S)N(CC)CC,1.34 µg/mL
Nc1ccn([C@@H]2O[C@H](CO)C(F)(F)C2(F)F)c(=O)n1,>100 µM
CCN(CC)CCN(C)c1ccc(CO)c2sc3cc(Cl)ccc3c(=O)c12,3.52 µg/mL
O=c1ccn([C@@H]2C=C(F)[C@H](CO)O2)c(=O)[nH]1,>100 µM

A second listing of 4 rows from above:

Nc1ccn([C@@H]2O[C@H](CO)C(F)(F)C2(F)F)c(=O)n1 ; result: >100 µM
NC(=S)N=Nc1c(O)n(CN2CCN(c3cc4c(cc3F)c(=O)c(C(=O)O)cn4C3CC3)CC2)c2ccc(Cl)cc12 ; result: >0.017 µM
O=c1ccn([C@@H]2O[C@H](CO)C(F)(F)C2(F)F)c(=O)[nH]1 ; result: >100 µM
Nc1nc2c(ncn2CCC(O)CO)c(=O)[nH]1 ; result: 500 µM

Lines come from different laboratories, so protocols vary.